Target: wild-type SARS-CoV-2 RBD-His protein (SARS-CoV-2, wild-type, UniProt P0DTC2)
Experiment: SPR
Settings: both partners purified

B1: 1D1 human monoclonal antibody against the RBD of SARS-CoV-2 (antibody, V domains shown)
VH: EVLLVESGGGLIQPGGSLRLSCAASGFTVSSNYMIWVRQAPGKGLEWVSLIYSGGSTFYADSVKGRFIISRDSSKNTLYLQMNSLRAEDTAVYYCAREPYGDKAWGQGTLVTVSS
VL: DIQMTQSPSSLSASVGDRVTITCQASQDINKYLNWYQQKPGKAPKPLISDTSNLQPGVPSRFSGSGAGTDFTLTISSLQPEDIATYYCQQYDNLPITFGQGTRLEIK
For B1, which t1/2 is on record?
The t1/2 was 1.28 h.
